Test results: patent US20030211470A1

Molecular target: HIV-1IIIB gp120/gp41 stably expressed on CHO cells (HIV-1 IIIB)
Assay: cell-based or functional assay

CD4-gamma2 chimeric heavy chain homodimer (Fc fusion)
Relative Potency (mass), relative to sCD4: 2.3 fold | Relative Potency (molarity), relative to sCD4: 5 fold
